Values from PubChem BioAssay AID504761 (Drosophila RNAi Screening Center, 2011)
Test: 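Insect host genes that dengue virus relies on to spread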 (primary screen). System: D.Mel-2 cells from Drosophila. Knock-down reagent: long dsRNA against Drosophila genes. Challenge: infection with dengue virus type 2; dose and infection time not stated. Measured: 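Per well on two replicate plates, imaging gave the percent of cells positive for viral envelope protein, ranked by infection, and a nuclear count of cells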. Reading the numbers: infection score: higher = more virus-infected cells. Rule for the call: 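Low infection ranks in the two replicates (chance level up to 0.065) followed by a retest with a 1.5-fold or larger significant decrease, p below 0.05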. Calls: active = confirmed: knock-down lowers infection; inactive = not picked or not confirmed.
The deposit covers about 22,000 reagents; this is an unselected part of those with a known target gene and a result. In the full data, 116 (0.52%) are marked active. 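Calls depend on retest data that are not deposited; infection was ranked per plate without normalising between plates; the unit of the infection score is not given.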 A number with no mark means an inactive call. Names joined by + are all predicted targets of the reagent. Not all columns of the deposit are shown. Not stated in the record: the amount of reagent, the time to read-out.

Plekhm1 (GeneID 37520) [DRSC04527]
- infection score, replicate 1: 6.98

Z600 (GeneID 39673) [DRSC11317]
- infection score, replicate 1: 5.04

CG18787 + CG18789 [DRSC24994]
- infection score, replicate 1: 9.07

CG15186 (GeneID 40797) [DRSC12566]
- infection score, replicate 1: 5.27

CG15186 (GeneID 40797) [DRSC26271]
- infection score, replicate 1: 8.72

clos (GeneID 5740204) [DRSC06240]
- infection score, replicate 1: 8.13

clos (GeneID 5740204) [DRSC06241]
- infection score, replicate 1: 2.51

clos (GeneID 5740204) [DRSC06778]
- infection score, replicate 1: 7.3

clos (GeneID 5740204) [DRSC21857]
- infection score, replicate 1: 15.2

clos (GeneID 5740204) [DRSC22942]
- infection score, replicate 1: 0.37

Osi19 (GeneID 40776) [DRSC12569]
- infection score, replicate 1: 3.34

ATPsynbeta (GeneID 43829) [DRSC17194]
- infection score, replicate 1: 6.99

Rap2l (GeneID 37850) [DRSC04646]
- infection score, replicate 1: 27.8

tty (GeneID 33109) [DRSC20588]
- infection score, replicate 1: 1.44

tty (GeneID 33109) [DRSC26868]
- infection score, replicate 1: 6.62

Ser7 (GeneID 31917) [DRSC18201]
- infection score, replicate 1: 11.1

CG32625 (GeneID 318128) [DRSC18994]
- infection score, replicate 1: 0.8

CG32625 (GeneID 318128) [DRSC28080]
- infection score, replicate 1: 5.42

mRpS5 (GeneID 3355089) [DRSC21380]
- infection score, replicate 1: 1.17

rho (GeneID 38168) [DRSC08734]
- infection score, replicate 1: 5.38

piwi (GeneID 34521) [DRSC03592]
- infection score, replicate 1: 14.2

Targets listed so far whose gene name starts with P or p (2):
Plekhm1 (GeneID 37520) [DRSC04527]
- infection score, replicate 1: 6.98

piwi (GeneID 34521) [DRSC03592]
- infection score, replicate 1: 14.2
